# Assay results from paper PMC13635753, “Mechanism of NanR transcriptional activation of sialic acid metabolism in Streptococcus pneumoniae” (Nucleic Acids Research, 2025).
# By UniProt entry, the sequences of proteins in these tests, tags left out. Residues count along the entry.
# UniProt A0A4M6CQT5, 1-283: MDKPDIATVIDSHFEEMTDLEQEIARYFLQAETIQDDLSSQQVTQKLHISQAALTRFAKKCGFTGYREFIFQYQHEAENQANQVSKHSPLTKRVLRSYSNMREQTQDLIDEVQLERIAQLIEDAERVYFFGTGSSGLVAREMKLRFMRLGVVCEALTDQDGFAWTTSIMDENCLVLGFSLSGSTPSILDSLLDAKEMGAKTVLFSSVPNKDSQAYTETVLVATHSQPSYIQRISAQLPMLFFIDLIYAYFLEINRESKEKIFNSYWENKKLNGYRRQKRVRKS
# Molecular target: SpNanR (Streptococcus pneumoniae, UniProt A0A4M6CQT5)
# Experiment: differential scanning fluorimetry (SYPRO Orange)
# Settings: 1 mM ligand, 20 μM protein
compound,measurement,value
CC(=O)N[C@@H]1C(O)O[C@H](COP(=O)(O)O)[C@@H](O)[C@@H]1O (stereo partly shown),dTm,+4.1 °C
